Activity calls are given as the source filed them. The calls are words filed in the database; no cut-off is given here.
Key:
[1] = molecular target: Human immunodeficiency virus type 1 reverse transcriptase (Human immunodeficiency virus 1) (UniProt Q72547); assay: Inhibition of HIV1 recombinant reverse transcriptase at <= 3 uM preincubated for 5 mins measured after 1 hr by electrophoresis analysis
Summary of the method: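 Recombinant HIV-1 RT preincubated 5 min at 45 °C with compound in 50 mM Tris-HCl pH 8.3, 75 mM KCl, 3 mM MgCl2, 10 mM DTT. Started with dNTPs (50 μM final) and run 60 min at 45 °C. Products resolved on 12% denaturing PAGE and imaged by autoradiography. Fully extended product quantified.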

[2] = test system: Human immunodeficiency virus 1; assay: Antiviral activity against HIV1 infected in human CEM/TK+ cells assessed as inhibition of virus-induced cytopathogenicity; format: functional, organism-based
[3] = test system: Human immunodeficiency virus 1; assay: Antiviral activity against HIV1 infected in human CEM/TK- cells assessed as inhibition of virus-induced cytopathogenicity; format: functional, organism-based

SMILES	inhibition [1]	inhibition [2]	inhibition [3]
Cc1cn([C@H]2C[C@H](N=[N+]=[N-])[C@@H](COP(=O)(O)Nc3ccccn3)O2)c(=O)[nH]c1=O	inactive	Active	inactive
O=c1ccn([C@H]2CC[C@@H](COP(=O)(O)Nc3ccccn3)O2)c(=O)[nH]1			inactive

Reference: ChEMBL document CHEMBL1828562, “Aryl H-phosphonates 17: (N-aryl)phosphoramidates of pyrimidine nucleoside analogues and their synthesis, selected properties, and anti-HIV activity” (J Med Chem, 2011)
